Anti-infective test results gathered from many reports (values: NIAID ChemDB through PubChem).

Common to all: whole-cell or culture tests; agent: Hepatitis C virus; measure: EC50

ECn: concentration that inhibits the pathogen or its effect by n%. Conditions beyond the fields shown may differ between rows. Two numbers with a dash give a range or band. An empty or dashed field is not shown.

SMILES | cell line | strain or isolate | changes | method | value
COCC(C)N(C(=O)C1CCC(C)CC1)c1cc(-c2ccc(NC(=O)c3cscn3)cc2)sc1C(=O)O |  | 1b |  | replicon | <0.5 µM
COC(=O)N[C@H](C(=O)N1CCCC1c1ncc(-c2ccc(-c3ccc(-c4cnc([C@@H]5CC(C)CN5C(=O)[C@@H](NC(=O)CO)C(C)C)[nH]4)cc3)cc2)[nH]1)C(C)C | ET | 1b | D320E | luciferase | 0.0000062 µM
Cn1cnc(CC(=O)N/N=C/c2ccccc2OS(=O)(=O)c2ccc(C(F)(F)F)cc2)c1 | Huh7 |  |  | replicon | <5 µM
C=C[C@H]1C[C@@]1(NC(=O)[C@@H]1C[C@@H](Oc2ccnc3cc(Cl)ccc23)CN1C(=O)[C@@H](NC(=O)OC1CCCC1)C(C)(C)C)C(=O)NS(=O)(=O)C1(CCCC)CC1 | Huh7 | 1b |  | replicon | 0.05–0.5 µM
CCCCCOc1ccc(N(C(N)=O)c2nc(-c3ccncc3)cs2)cc1F |  |  |  |  | >10 µM
Cc1ccc(S(=O)(=O)N/N=C/c2ccccc2OS(=O)(=O)c2ccc(C(F)(F)F)cc2)cc1 | Huh7 |  |  | replicon | 5–50 µM
C[C@@H](NC(=O)c1ccccc1)C(=O)Nc1ccc(C2SC(=Nc3cccc(F)c3)N(Cc3ccco3)C2=O)cc1 | Huh7 |  |  | replicon | 1–5 µM
O=C(Nc1cccc(-c2cc(-c3c(Cl)cccc3C3CCCCC3)no2)c1)C(Cl)Cl |  |  |  | replicon | ≤10 µM
C[C@@H](NC(=O)OCc1ccccc1)C(=O)Nc1ccc(C2SC(=Nc3ccc(F)cc3Cl)N(Cc3ccco3)C2=O)cc1 | Huh7 |  |  | replicon | 1–5 µM
COc1ccc2c(O[C@@H]3C[C@@H](C(=O)N[C@@]4(C(=O)NS(=O)(=O)C5(CC6CC6)CC5)CC45CC5)N(C(=O)[C@@H](NC(=O)OC(C)(C)C)C(C)(C)C)C3)cc(-c3ccccc3)nc2c1 | Huh7 | 1b |  | replicon | 0.5–5 µM
CC(C)C(=O)N1c2cccc(O)c2NC2=C(C(=O)CC(C)(C)C2)C1c1ccc(OCc2ccccc2)c(F)c1 |  | 1b |  | luciferase / reporter gene / replicon | 1.27 µM
CCCCCCCCOc1ccc(N(C(C)=O)c2nc(-c3cccnc3)c(F)s2)cc1C(F)(F)F |  |  |  |  | <1 µM
O=C(Nc1cccc(-c2cc(-c3c(Cl)ccc(Cl)c3Cl)no2)c1)C(Cl)Cl |  |  |  | replicon | >10 µM
O=c1c(-c2noc(Cc3ccccc3)n2)cn(Cc2ccc(Cl)cc2)c2cc(N3CCC(O)CC3)c(F)cc12 |  | 1b |  | replicon | <2 µM
COc1c(-c2ccc3cc(NS(C)(=O)=O)ccc3c2)cc(-n2ccc(=O)[nH]c2=O)cc1C(C)(C)C | Huh7 | genotype 1b | P495A | luciferase | 0.0043 µM
C=CC1C[C@@]1(NC(=O)[C@@H]1C[C@@H](Oc2cc(-c3ccccc3)nc3cc(OC)ccc23)CN1C(=O)[C@@H](NC(=O)CCOC)C(C)(C)C)C(=O)NS(=O)(=O)C1(Cc2ccccc2)CC1 | Huh7 | 1b |  | replicon | 0.05–0.5 µM
C[C@@H](NC(=O)OCc1ccccc1)C(=O)Nc1ccc(C2SC(=Nc3ccc(N4CCOCC4)cc3)N(c3ccccn3)C2=O)cc1 | Huh7 |  |  | replicon | 0.1–1 µM
CN(C)c1cccc(OCC(=O)N/N=C/c2ccccc2OS(=O)(=O)c2ccc(C(F)(F)F)cc2)c1 | Huh7 |  |  | replicon | >50 µM
CN1CCN(c2cc3c(cc2F)c(=O)c(-c2noc(Cc4ccccc4)n2)cn3Cc2c(F)cccc2F)CC1 |  | 1b |  | replicon | <10 µM
CCCCOc1ccc(N(C(N)=O)c2nc(-c3ccncc3)cs2)cc1C(F)(F)F |  |  |  |  | <1 µM
C=CC1CC1(NC(=O)[C@@H]1C[C@@H](Oc2cc(-c3ccccc3)nc3cc(OC)ccc23)CN1C(=O)[C@@H](NC(=O)OC(C)(C)C)C(C)(C)C)C(=O)NS(=O)(=O)C1(COC)CC1 | Huh7 | 1b |  | replicon | <0.05 µM
CC(C)(c1ccccc1)c1nc(-c2cn(Cc3ccc(C(F)(F)F)cc3)c3cc(N4CCNC(=O)C4)c(F)cc3c2=O)no1 |  | 1b |  | replicon | <10 µM
COc1cccc(CC(=O)N/N=C/c2c(Cl)cccc2OS(=O)(=O)c2ccc(C(F)(F)F)cc2)c1 | Huh7 |  |  | replicon | <5 µM
CN1CCN(c2cc3c(cc2F)c(=O)c(-c2noc(C(CCCC#N)c4ccccc4)n2)cn3Cc2ccc(Cl)cc2)CC1 |  | 1b |  | replicon | <10 µM
C[C@@H](NC(=O)Cc1ccccc1)C(=O)Nc1ccc(C2SC(=Nc3cccc(F)c3)N(Cc3ccco3)C2=O)cc1 | Huh7 |  |  | replicon | <0.1 µM
O=C(C1=Cc2ccccc2-c2c(C3CCCCC3)c3ccc(C(=O)N4CCOCC4)cc3n2C1)N1CCOCC1 | Huh7 |  |  | replicon | 1–10 µM
O=S(=O)(Cc1ccc(C(F)(F)F)cc1)N/N=C/c1ccccc1NS(=O)(=O)c1ccc(C(F)(F)F)cc1 | Huh7 |  |  | replicon | 5–50 µM
Cc1cccc(C(F)(F)F)c1-c1cc(-c2cccc(NC(=O)C(Cl)Cl)c2)on1 |  |  |  | replicon | ≤10 µM
C=C[C@H]1C[C@@]1(NC(=O)[C@@H]1C[C@@H](Oc2cc(-c3ccccc3)nc3cc(OC)ccc23)CN1C(=O)[C@@H](NC(=O)OC(C)(C)C)C(C)(C)C)C(=O)NS(=O)(=O)C1(Cc2ccc(F)cc2)CC1 | Huh7 | 1b |  | replicon | 0.05–0.5 µM
CCCCCOc1ccc(N(C(C)=O)c2nc(-c3ccc(F)cc3)cs2)cc1C(F)(F)F |  |  |  |  | <1 µM
CN(C)S(=O)(=O)NC(=O)c1ccc2c(C3CCCCC3)c3n(c2c1)CC(C(=O)N1CCOCC1)Cc1cccnc1-3 | Huh7 |  |  | replicon | 0.01–1 µM
Cc1ccc(C(=O)Nc2ccc(-c3cc(N(C(=O)C4CCC(C)CC4)C(C)C)c(C(=O)O)s3)cc2)o1 |  | 1b |  | replicon | <0.5 µM
O=c1c(-c2noc(Cc3ccccc3)n2)cn(Cc2ccc(Cl)cc2)c2cc(N3CCNCC3)c(F)cc12 |  | 1b |  | replicon | >10 µM
COc1cccc(CC(=O)N/N=C/c2ccccc2OS(=O)(=O)c2ccc(C(C)=O)cc2)c1 | Huh7 |  |  | replicon | <5 µM
C=C[C@H]1C[C@@]1(NC(=O)[C@@H]1C[C@@H](Oc2cc(-c3ccccc3)nc3cc(OC)ccc23)CN1C(=O)[C@@H](NC(=O)OC(C)(C)C)C(C)(C)C)C(=O)NS(=O)(=O)C1(Cc2cc(C)on2)CC1 | Huh7 | 1b |  | replicon | <0.05 µM
COCCN(C(=O)C1CCC(C)CC1)c1cc(-c2ccc(NC(=O)c3cn(C)cn3)cc2)sc1C(=O)O |  | 1a |  | replicon | <0.5 µM
Cc1ccc(N=C2SC(c3ccc(NC(=O)[C@@H](C)NC(=O)OCc4ccccc4)cc3)C(=O)N2Cc2ccco2)c(Cl)c1 | Huh7 |  |  | replicon | 1–5 µM
COc1ccc(CC(=O)N/N=C/c2ccccc2OS(=O)(=O)c2ccc(C(F)(F)F)cc2)cc1OC | Huh7 |  |  | replicon | <5 µM
CC1(C)CC(=O)C2=C(C1)Nc1c(O)cccc1N(C(=O)NCC(=O)N1CCCC1)C2c1ccc(OCc2ccccc2)cc1Cl |  | 1b |  | luciferase / reporter gene / replicon | 18.94 µM
Cc1cc(C(=O)Nc2ccc(-c3cc(N(C(=O)C4CCC(C)CC4)C(C)C)c(C(=O)O)s3)cc2)no1 |  | 1b |  | replicon | <0.5 µM
O=C(O)c1ccc2c(C3CCCCC3)c3n(c2c1)CCCc1ocnc1-3 | Huh7 |  |  | replicon | >10 µM
O=C(Nc1cccc(-c2cc(-c3c(Cl)cccc3-n3ccnc3)no2)c1)C(Cl)Cl |  |  |  | replicon | ≤10 µM
COC(=O)/C=C/c1ccc(NC(=O)C2(NC(=O)c3ccc4c(C5CCCCC5)c5n(c4c3)CC(=O)Nc3cccnc3-5)CCCC2)cc1 | Huh7 |  |  | replicon | 0.01–1 µM
COc1ccc2c(O[C@@H]3C[C@@H](C(=O)N[C@@]4(C(=O)NS(=O)(=O)C5(Cc6ccccc6)CC5)CC4C4CC4)N(C(=O)[C@@H](NC(=O)OC(C)(C)C)C(C)(C)C)C3)cc(-c3ccccc3)nc2c1 | Huh7 | 1b |  | replicon | 0.05–0.5 µM
CC1(C)CC(=O)C2=C(C1)Nc1c(O)cccc1N(C(=O)CCC(=O)Nc1ccc(S(N)(=O)=O)cc1)C2c1ccc(OCc2ccccc2)cc1Cl |  | 1b |  | luciferase / reporter gene / replicon | 55.33 µM
CN(C)S(=O)(=O)NC(=O)c1ccc2c(C3CCCCC3)c3n(c2c1)CC(C(=O)N1CCOCC1)Cc1ccccc1-3 | Huh7 |  |  | replicon | 0.01–1 µM
O=c1c(-c2nc(Cc3ccc(F)cc3)no2)cn(Cc2ccc(C(F)(F)F)cc2)c2cc(N3CCOCC3)c(F)cc12 |  | 1b |  | replicon | >10 µM
Cc1ccncc1C(=O)Nc1ccc(-c2cc(N(C(=O)C3CCC(C)CC3)C(C)C)c(C(=O)O)s2)cc1 |  | 1a |  | replicon | <0.5 µM
C=C[C@H]1C[C@@]1(NC(=O)[C@@H]1C[C@@H](Oc2cc(-c3ccccc3)nc3cc(OC)ccc23)CN1C(=O)[C@@H](NC(=O)C1CCOCC1)C(C)(C)C)C(=O)NS(=O)(=O)C1(Cc2ccccc2)CC1 | Huh7 | 1b |  | replicon | 0.5–5 µM
O=C(N[C@@H](C(=O)N1CCC[C@H]1c1ncc(-c2ccc(-c3ccc(-c4cnc([C@@H]5CCCN5C(=O)[C@H](NC(=O)C5CC5)c5ccccc5)s4)cc3)cc2)s1)c1ccccc1)C1CC1 | Huh7.5 | genotype 1b | P58T | luciferase / reporter gene | 0.000243 µM
CC1(C)CC(=O)C2=C(C1)Nc1c(O)cccc1NC2c1cccc(Cl)c1Cl |  | 1b |  | luciferase / reporter gene / replicon | >100 µM
COC(=O)c1ccc2c(c1)CCN(S(=O)(=O)NC(=O)c1ccc3c(C4CCCCC4)c4n(c3c1)CC(=O)Nc1ccccc1-4)C2 | Huh7 |  |  | replicon | 1–10 µM
O=C(N/N=C/c1ccccc1OS(=O)(=O)c1ccc(C(F)(F)F)cc1)c1cnccc1C(F)(F)F | Huh7 |  |  | replicon | 5–50 µM
C=C[C@H]1C[C@@]1(NC(=O)[C@@H]1C[C@@H](Oc2cc(-c3ccccc3)nc3cc(OC)ccc23)CN1C(=O)[C@@H](NC(=O)OC(C)(C)C)C(C)(C)C)C(=O)NS(=O)(=O)C1(CC)CC1 | Huh7 | 1b |  | replicon | <0.05 µM
O=C(O)c1ccc2c(C3CCCCC3)c3n(c2c1)CCCc1ncccc1-3 | Huh7 |  |  | replicon | 0.01–1 µM
O=C(Cc1ccc(Cl)nc1)N/N=C/c1ccccc1OS(=O)(=O)c1ccc(C(F)(F)F)cc1 | Huh7 |  |  | replicon | <5 µM
O=C(Nc1cccc(-c2noc(-c3c(Cl)cccc3Cl)n2)c1)C(Cl)Cl |  |  |  | replicon | ≤10 µM
CC(C)C(=O)N1c2cccc(O)c2NC2=C(C(=O)CC(C)(C)C2)C1c1ccc(Oc2ccccc2Br)cc1Cl |  | 1b |  | luciferase / reporter gene / replicon | 4.06 µM
O=C(O)c1ccc2c(C3CCCCC3)c3n(c2c1)CCCn1cccc1-3 | Huh7 |  |  | replicon | >10 µM
O=C(Nc1cccc(-c2cc(-c3ccccc3OCc3ccccc3)no2)c1)C(Cl)Cl |  |  |  | replicon | >10 µM